Measured values from several laboratories, pooled; numbers as filed in NIAID ChemDB.

Common to all: growth or infection tests; agent: Rhinovirus

Rows are shuffled and stem from different studies. a–b is a range or a potency band. ECn: concentration that inhibits the pathogen or its effect by n%. Blank or dashed fields: not listed here. MIC50, MIC90 and the like: level of inhibition, or share of isolates inhibited. Percent inhibition refers to the dose given; in toxicity tests it is the harm to the cells.

SMILES | strain | cells | read by | measure | dose | result
CSc1nsc(-c2ccc(OCCCCOc3ccc(C#N)cc3)cc2)c1C#N | Serotype 72 (group A) | HELA-OHIO | cytopathic effect | EC50 |  | >2 µM
CCCCCCCCCCCCCCOc1ccc(C(C)=O)o1 | 100 serotypes |  |  | inhibition | 0.5 µg/mL | 53%
CCSc1ncnc2c1ncn2[C@@H]1OC2COP(=O)(O)OC2[C@H]1O | TYPE 56 |  |  | MIC |  | 1 µg/mL
CCOC(=O)c1ccc(OCCCOc2ccc(-c3snc(SC)c3C#N)cc2)cc1 | Serotype 70 (group A) | HELA-OHIO | cytopathic effect | EC50 |  | 0.5 µM
COCc1ccc(CCCOc2c(C)cc(-c3noc(C(F)F)n3)cc2C)nn1 | serotypes 3 4 5 9 16 18 38 66 75 67 | HeLa | cytopathic effect | EC80 |  | 0.067 µg/mL
Nc1nc2c(ccn2[C@@H]2C[C@H](CO)[C@H](O)[C@@H]2O)c(=O)[nH]1 | TYPE 31 |  |  | MIC |  | >100 µg/mL
CSc1nsc(-c2ccc(OCCc3ccccc3)cc2)c1C#N | Serotype 15 (group B) | HELA-OHIO | cytopathic effect | EC50 |  | 10 µM
Cc1cc(OCCCc2ccc(CO)nn2)cc(C)c1-c1noc(C(F)(F)F)n1 | serotypes 3 4 5 9 16 18 38 66 75 67 | HeLa | cytopathic effect | EC80 |  | 0.18 µg/mL
O=P1(O)OCC2O[C@@H](n3cnc4c(SCc5ccccc5)ncnc43)[C@H](O)C2O1 | TYPE 13 |  |  | MIC |  | 3.2–32 µg/mL
O=C(Nc1cc(S(=O)(=O)[O-])cc2cc(S(=O)(=O)[O-])ccc12)c1ccccc1 |  | Human amnion AV3 cells | cytopathic effect | inhibition | 5 µg/mL | 0%
Cc1cc(CCCCCOc2cc(Cl)c(-c3nnco3)c(Cl)c2)on1 | Serotype 50 |  |  | MIC80 |  | 0.091 µg/mL
Cc1ccc(CCCOc2c(C)cc(-c3noc(C(F)F)n3)cc2C)nn1 | serotypes 3 4 5 9 16 18 38 66 75 67 | HeLa | cytopathic effect | EC80 |  | 0.116 µg/mL
Cc1cc(-c2ccc(N=Nc3ccc4c(S(=O)(=O)O)cc(S(=O)(=O)O)c(N)c4c3O)c(C)c2)ccc1N=Nc1ccc2c(S(=O)(=O)O)cc(S(=O)(=O)O)c(N)c2c1O |  | Human embryonic lung cells | cytopathic effect | inhibition | 5 µg/mL | 0%
CSc1nsc(-c2ccc(OS(=O)(=O)c3ccc(C)cc3)cc2)c1C#N | Serotype 9 (group B) | HELA-OHIO | cytopathic effect | EC50 |  | 0.9 µM
CSc1nsc(-c2ccc(OCCCc3ccccc3)cc2)c1C#N | Serotype 41 (group B) | HELA-OHIO | cytopathic effect | EC50 |  | >20 µM
Cc1cc(CCCOc2c(C)cc(-c3noc(C(F)(F)F)n3)cc2C)on1 | Isolate 27 | OHIO HELA-I | cytopathic effect / visual reading | EC50 |  | 0.02 µg/mL
CSc1ccc(CCCOc2cc(C)c(-c3noc(C(F)F)n3)c(C)c2)nn1 | serotypes 3 4 5 9 16 18 38 66 75 67 | HeLa | cytopathic effect | EC80 |  | 0.15 µg/mL
Fc1cccc(Cn2cnc3c(Nc4cccc(F)c4)nc(C(F)(F)F)nc32)c1 | Serotype 10 | M-HELA | plaque count | EC50 |  | 3.3 µM
Nc1ccc2cc([N+](=O)[O-])cc(S(=O)(=O)[O-])c2c1 |  | Human amnion AV3 cells | cytopathic effect | inhibition | 5 µg/mL | 0%
FC(F)(F)c1cccc(C2CCN(c3ccc(Br)nn3)C2)c1 | 17 serotypes |  |  | inhibition | 32 µg/mL | 71%
CCOC(=O)c1ccc(OCCCCOc2ccc(-c3snc(SC)c3C#N)cc2)cc1 | Serotype 86 (group A) | HELA-OHIO | cytopathic effect | EC50 |  | >2 µM
CCOC(=O)c1ccc(OCCCCC(=O)c2ccc(Cl)c(Cl)c2)cc1 | serotype 1A 1B 2 6 14 15 21 22 25 29 30 41 42 45 59 63 67 70 72 86 89 |  |  | MIC80 |  | >194 µM
COc1ccc(-c2snc(SC)c2C#N)cc1 | Serotype 14 (group A) | HELA-OHIO | cytopathic effect | EC50 |  | >12 µM
CSc1nsc(-c2ccc(OCc3ccccc3)cc2)c1C#N | Serotype 70 (group A) | HELA-OHIO | cytopathic effect | EC50 |  | 25 µM
Cc1ccc(Cn2cnc3c(N(C)C)nc(C(F)(F)F)nc32)c(C)c1 | Serotype 21 | M-HELA | plaque count | inhibition | 8 µM | 16%
CSc1nsc(-c2ccc(OCCCOc3ccc(C#N)cc3)cc2)c1C#N | Serotype 63 (group B) | HELA-OHIO | cytopathic effect | EC50 |  | >2 µM
CN(C)c1nc(C(F)(F)F)nc2c1ncn2Cc1ccc([N+](=O)[O-])cc1 | Serotype 31 | M-HELA | plaque count | inhibition | 8 µM | 37%
CSc1nsc(-c2ccc(O)cc2)c1C#N | Serotype 42 (group A) | HELA-OHIO | cytopathic effect | EC50 |  | >10 µM
CCOC(=O)c1ccc(OCCCCC(=O)c2ccc(C)cc2)cc1 | serotype 1A 1B 2 6 14 15 21 22 25 29 30 41 42 45 59 63 67 70 72 86 89 |  |  | MIC80 |  | >293 µM
CCO/N=C/c1ccc(OCCC2CCN(c3ccc(Cl)nn3)CC2)cc1 | 41467 (ICAM-1 receptor group 89) | KB | neutral red | EC50 |  | 0.002 µM
Fc1cccc(Nc2nc(C(F)(F)F)nc3c2ncn3Cc2ccccc2F)c1 | Serotype 5 | M-HELA | plaque count | EC50 |  | >20 µM
Cc1cc(OCCCc2ccc(C(C)F)nn2)cc(C)c1-c1noc(C(F)F)n1 | serotypes 3 4 5 9 16 18 38 66 75 67 | HeLa | cytopathic effect | EC80 |  | 0.06 µg/mL
O=S(=O)([O-])c1ccc(NS(=O)(=O)c2ccccc2)c2c(S(=O)(=O)[O-])cccc12 |  | Human embryonic lung cells | cytopathic effect | inhibition | 5 µg/mL | 30%
COc1ccc(N2CCN(c3cccc(C)c3)CC2)nn1 | 17 serotypes |  |  | inhibition | 11.7 µg/mL | 71%
Cc1cc(Cn2cnc3c(N(C)C)nc(C(F)(F)F)nc32)ccc1Cl | Serotype 18 | M-HELA | plaque count | inhibition | 8 µM | 28%
CSc1nsc(-c2ccc(OCCCCOc3ccc([N+](=O)[O-])cc3)cc2)c1C#N | Serotype 14 (group A) | HELA-OHIO | cytopathic effect | EC50 |  | >0.5 µM
CCOC(=O)c1csc(N2CCN(Cc3cc(C)ccc3C)CC2)n1 | 17 serotypes |  |  | inhibition | 5.8 µg/mL | 71%
CN(C)c1nc(C(F)(F)F)nc2c1ncn2Cc1ccc(C(F)(F)F)cc1 | Serotype 13 | M-HELA | plaque count | inhibition | 8 µM | 22%
Cc1ccc(CCCCCOc2ccc(-c3noc(C(F)F)n3)c(C)c2)nn1 | serotypes 3 4 5 9 16 18 38 66 75 67 | HeLa | cytopathic effect | EC80 |  | 0.63 µg/mL
Cc1ccc(C(=O)CCCCOc2ccc(C#N)cc2)cc1 | serotype 1A 1B 2 6 14 15 21 22 25 29 30 41 42 45 59 63 67 70 72 86 89 |  |  | MIC80 |  | >146 µM
Cc1cc(-c2ccc(N=Nc3c(S(=O)(=O)O)cc4cc(S(=O)(=O)O)cc(N)c4c3O)c(C)c2)ccc1N=Nc1c(S(=O)(=O)O)cc2cc(S(=O)(=O)O)cc(N)c2c1O |  | Human amnion AV3 cells | cytopathic effect | inhibition | 10 µg/mL | 0%
Cc1cc(CCCCCOc2cc(Cl)c(-c3nnc(C)o3)c(Cl)c2)on1 | Serotype 22 |  |  | MIC80 |  | 0.018 µg/mL
Nc1ccc2c(O)cc(S(=O)(=O)[O-])cc2c1S(=O)(=O)[O-] |  | Human embryonic lung cells | cytopathic effect | inhibition | 5 µg/mL | 55%
FC(F)(F)c1cccc(C2CCN(c3ccc(Cl)nn3)C2)c1 | 17 serotypes |  |  | inhibition | 0.25 µg/mL | 53%
CN(C)c1nc(C(F)(F)F)nc2c1ncn2Cc1ccc(S(C)(=O)=O)cc1 | Serotype 5 | M-HELA | plaque count | inhibition | 8 µM | 40%
Cc1ccc(N2CCC(c3cccc(C(F)(F)F)c3)C2)nn1 | 100 serotypes |  |  | inhibition | 0.25 µg/mL | 53%
O=C(CCCCOc1ccc(C2=NCCO2)cc1)c1ccc(F)cc1 | serotype 1A 1B 2 6 14 15 21 22 25 29 30 41 42 45 59 63 67 70 72 86 89 |  |  | MIC80 |  | >293 µM

A second listing of 5 rows from above:

SMILES,strain,cells,read by,measure,dose,result
COc1ccc(N2CCN(c3cccc(C)c3)CC2)nn1,17 serotypes,,,inhibition,11.7 µg/mL,71%
CCCCCCCCCCCCCCOc1ccc(C(C)=O)o1,100 serotypes,,,inhibition,0.5 µg/mL,53%
O=P1(O)OCC2O[C@@H](n3cnc4c(SCc5ccccc5)ncnc43)[C@H](O)C2O1,TYPE 13,,,MIC,,3.2–32 µg/mL
CSc1nsc(-c2ccc(OCCCc3ccccc3)cc2)c1C#N,Serotype 41 (group B),HELA-OHIO,cytopathic effect,EC50,,>20 µM
Cc1cc(OCCCc2ccc(C(C)F)nn2)cc(C)c1-c1noc(C(F)F)n1,serotypes 3 4 5 9 16 18 38 66 75 67,HeLa,cytopathic effect,EC80,,0.06 µg/mL